This data set concerns calf-thymus DNA (CT DNA). Nature of the data set: DNA-binding study by UV–vis absorption spectroscopy. The settings on record: + hyperchromism / − hypochromism.

Each structure is given as a SMILES string.

In the case of `CN1CCN(c2c(F)cc3c(=O)c(C(=O)O)cn(CCF)c3c2F)CC1` [Fleroxacin, 6,8-difluoro-1-(2–fluoroethyl)-7-(4-methylpiperazin-1-yl)-4-oxoquinoline-3-carboxylic acid], the “Band (ΔA/A0, Δλ): UV–vis band λmax, percentage of hyper-/hypochromism, blue/red shift upon addition of DNA” value is reported as 291 (−17, −6); 331 (+8, 0) nm (%, nm).

Values taken from paper PMC9144902, “Metal(II) Complexes of the Fluoroquinolone Fleroxacin: Synthesis, Characterization and Biological Profile” (Pharmaceutics, 2022).
